Data on two compounds can be found in US8269014B2, “Thiophene analogues for the treatment or prevention of flavivirus infections” (Vertex Pharmaceuticals (Canada) Incorporated, priority 2006, dated 2012).

Structures are written as SMILES. Some compounds may have been tested in ways that are not shown here.

In this assay the test system is HCV replicon cells (Huh-7 ET cells). Conditions: Ratio of CC50/IC50 in HCV replicon cells (Huh-7 ET cells); average TI when tested more than once.

In the case of `CC1CCC(C(=O)N(c2cc(-c3ccccc3)sc2C(=O)O)C2CCN(C)CC2)CC1.Cl` (centres unmarked), the TI result was “++++ (++++: 2000-4000)”. The value for `CN1CCC(N(c2cc(C#CC(C)(C)C)sc2C(=O)O)C(=O)[C@H]2CC[C@H](C)CC2)CC1.Cl` (relative stereo) was “++++++ (++++++: >6000)”.
